# Experimental data: patent publication US12295987B2 (Eli Lilly and Company, priority 2018, dated 2025)
# Experiment: general procedure: Fmoc solid-phase peptide synthesis; Fmoc-Rink-MBHA Low Loading resin, 100-200 mesh, 1% DVB cross-linked polystyrene, 0.3-0.4 meq/g; diisopropylcarbodiimide/Oxyma; PyAOP/DIPEA for fatty acid-linker moiety
# Details: whole synthesis, analytical RP-HPLC, TFA salt
substance,measurement,value
Y-Aib-EGT-αMeF(2F)-TSDYSI-αMeL-LDEK((2-[2-(2-Amino-ethoxy)-ethoxy]-acetyl)2-(γGlu)-CO—(CH2)18—CO2H)AQ-Aib-EFI-(D-Glu)-YLIEGGPSSGAPPPS-NH2,final HPLC purity,98.0%
